# Taken from: PubChem BioAssay AID624099 (ICCB-Longwood, 2012)
# Aim: 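Human genes that papillomavirus E2 requires to repress the HPV18 LCR promoter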 (primary screen)
# Cells: human C33A cervical carcinoma cells (HPV-negative) stably expressing BPV1 E2 and an HPV18 LCR luciferase reporter
# Reagents: siRNA pool against human genes, 40 nM
# Time to read-out: 72 h
# Measured: 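Per-well luciferase luminescence, z-scored on each plate against the plate mean and SD with control wells left out, then averaged across three replicate plates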
# Reading the numbers: mean z-score and z-score: higher = stronger reporter signal, weaker E2 silencing
# Active means: 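Hit if mean z-score reaches 2 and two or more of three replicate z-scores also reach 2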
# In all, the deposit lists about 21,000 reagents; this is a random part of them. 497 of all reagents (2.4%) count as active. 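Higher z means weaker E2 silencing; only reporter increases were scored, and knock-downs that hurt cell survival may mask genuine repressor factors.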 Unmarked entries are inactive. The numbers tell different reagents against one gene apart.
The first 8 entries as a preview:
gene,reagent no.,mean z-score,"z-score, replicate A","z-score, replicate B","z-score, replicate C"
PRCD,1,0.14,-0.08,0.02,0.47
NUDT9,1,1.79,1.56,1.8,2.02
HYLS1,1,-0.81,-0.77,-1.01,-0.64
ASB15,1,-0.77,-0.52,-1.14,-0.65
EDN3,1,-1.01,-1.11,-1.04,-0.89
ZNF331,1,-0.41,-0.11,-0.52,-0.59
TERF2IP,1,0.84,0.58,0.85,1.07
ISL2,1,-0.42,-0.2,-0.6,-0.47

The listing, from the start:
gene,reagent no.,mean z-score,"z-score, replicate A","z-score, replicate B","z-score, replicate C"
PRCD,1,0.14,-0.08,0.02,0.47
NUDT9,1,1.79,1.56,1.8,2.02
HYLS1,1,-0.81,-0.77,-1.01,-0.64
ASB15,1,-0.77,-0.52,-1.14,-0.65
EDN3,1,-1.01,-1.11,-1.04,-0.89
ZNF331,1,-0.41,-0.11,-0.52,-0.59
TERF2IP,1,0.84,0.58,0.85,1.07
ISL2,1,-0.42,-0.2,-0.6,-0.47
ADIPOR1,1,-1.13,-1.33,-0.79,-1.26
TERF1P5,1,1.49,1.98,1.46,1.02
NEFH,1,-0.43,-0.58,-0.49,-0.22
GNG8,1,-0.22,0,-0.28,-0.37
KIF2A,1,0.73,0.62,0.99,0.59
AKAP7,1,-0.38,-0.59,-0.39,-0.18
PIBF1,1,0.97,0.96,1.08,0.86
MKRN4P,1,0.81,0.81,0.79,0.84
SPATA45,1,2.17 (active),1.54,2.52,2.46
ZDHHC3,1,-0.86,-0.48,-1.04,-1.06
ZDHHC3,2,1.21,1.02,1.2,1.4
SHLD1,1,1.28,1.55,1.03,1.24
COX18,1,-0.61,-0.86,-0.46,-0.52
TRAM2-AS1,1,1.05,1.21,1.2,0.74
HMGN2P46,1,-1.89,-1.54,-2.29,-1.85
KRTAP19-3,1,-1,-0.75,-1.32,-0.93
SMYD3,1,0.79,0.54,0.86,0.97
CACNG1,1,0.36,0.74,0.4,-0.04
BLMH,1,-0.79,-0.83,-0.88,-0.65
ZBED8,1,0.57,0.36,0.38,0.97
PRKAR2B,1,-0.99,-1,-1.03,-0.95
SCIMP,1,-0.02,0.38,-0.38,-0.06
POU5F1,1,1.34,1.37,1.67,0.99
ESPN,1,-1.14,-1.46,-0.92,-1.05
PPIAP74,1,-0.86,-1.38,-0.76,-0.44
LDHB,1,1.1,1.24,0.94,1.11
UGT1A7,1,0.2,0.17,0.04,0.39
C5,1,-0.7,-0.66,-0.49,-0.94
TLCD5,1,0.06,0.12,-0.14,0.19
LITAF,1,0.43,0.34,0.36,0.61
LINC02909,1,1.17,1.11,1.18,1.21
ZNF324,1,-1.23,-1.02,-1.47,-1.21
ZFYVE9,1,0.71,0.66,0.97,0.49
LRRN2,1,-0.08,-0.21,-0.02,-0.02
GMPPA,1,0.53,0.51,0.58,0.51
C10orf53,1,-1.46,,-1.4,-1.52
PSORS1C2,1,-0.31,-0.15,-0.64,-0.13
ITPRID1,1,-2.01,-2.12,-1.9,-1.62
PIN1P1,1,-0.17,-0.36,0,-0.14
ZXDC,1,1.04,1.23,0.86,1.03
RBMY1J,1,0.03,0.06,-0.11,0.15
PDE4A,1,0.36,0.26,0.46,0.37
ERBB2,1,1.79,1.96,1.78,1.63
RSPO1,1,-0.16,-0.31,0.09,-0.25
GPAT2,1,0.07,0,0.02,0.19
HBE1,1,-0.73,-0.79,-0.58,-0.81
VSIG10L2,1,-0.31,0.19,-0.6,-0.52
ZNF579,1,0.13,0.46,0.22,-0.28
LTBP4,1,0.77,0.61,0.9,0.79
CRLF2,1,1.04,1.17,1.02,0.95
PPP4R3C,1,-1.86,-2,-1.87,-1.72
DDX39A,1,1.57,1.44,1.7,1.56
LOC402527 (retired record),1,0.24,0.41,0.31,0.01
BTK,1,-0.28,-0.26,-0.06,-0.53
KGD4,1,1.11,0.82,1.25,1.26
ZNF669,1,3.13 (active),4.04,3.06,2.3
LTO1,1,-0.64,-0.17,-0.96,-0.81
BCAS3,1,-0.04,-0.34,0.08,0.15
RLBP1,1,-1.11,-1.01,-1.24,-1.08
POLR1F,1,-0.94,-0.81,-0.93,-1.06
TFAP2C,1,-0.52,-0.39,-0.36,-0.81
TGIF1,1,-0.98,-0.97,-0.98,-0.99
BMF,1,2.41 (active),2.31,2.54,2.38
FIGNL2,1,-0.97,-1.11,-0.97,-0.85
DNAJB2,1,-0.81,-0.46,-0.88,-1.08
